Results of unrelated studies side by side (data: NIAID ChemDB).

Shared fields: whole-cell or culture tests; organism: Mycobacterium tuberculosis

Inhibition is in % at the dose shown (toxicity tests: loss of growth or viability).

structure	strain or isolate	changes	method	read-out	tested at	result
Cc1occc1C(=S)Nc1ccc(Cl)c(/C=N/OC(C)(C)C)c1	H37Rv		BACTEC	inhibition	12.5 µg/mL	99%
Cn1c2ccccc2c2cc(C=NNc3nc(-c4ccc(Br)cc4)cs3)ccc21	H37Rv		fluorescence	EC90		160 µM
CCOc1ccc(NC(=O)C2(c3cccs3)CCOCC2)cc1	CDC1551		turbidity	EC50		81 µM
Cn1c2ccccc2c2cc(C=NNc3nc(-c4ccccc4O)cs3)ccc21	H37Rv		fluorescence	MIC		31 µM
CC(=O)O[C@H]1C[C@@]2(C)[C@@H](C[C@@H](O)[C@H]3[C@@]4(C)CC[C@@H](O)[C@@H](C)[C@@H]4CC[C@@]32C)/C1=C(\CCC=C(C)C)C(=O)O	H37Rv			MIC		4 µg/mL
Cc1c(C(=O)NNC(=O)c2ccncc2)nn(-c2ccc(Cl)cc2Cl)c1-c1ccc(Cl)cc1	H37Rv		agar	MIC90		12.5 µg/mL
C=C1CCC[C@]2(C)CC[C@H]3C(=C)C(=O)O[C@@H]3[C@@H]12	H37Rv			MIC		64 µg/mL
Cc1cc(N=NC(N)=S)c2ccccc2c1O	H37Rv		BACTEC	inhibition	12.5 µg/mL	65%
COC(=O)/C=C/C(=O)c1ccc(C(C)(C)C)cc1				MIC		0.8 µg/mL
O=C(Nc1nc(-c2ccccc2)cs1)c1cc(-c2cccs2)nc2ccccc12	H37Rv		fluorescence	MIC		>6.25 µg/mL
O=C(c1ccncc1)N(/N=C/c1ccc(Cl)cc1Cl)C(=O)c1cnccn1	9 isolates (resistant)			MIC		>16 µg/mL
CCc1ccc(NC(=O)C2(c3cccs3)CCOCC2)cc1	CDC1551		turbidity	MIC99		342 µM
O=C(c1ccncc1)N(/N=C/c1cccc(Oc2ccccc2)c1)C(=O)c1cnccn1	9 isolates (sensitive)			MIC		>16 µg/mL
CO[C@H]1/C=C/O[C@@]2(C)Oc3c(C)c(O)c4c(O)c(c(/C=N/N5CCN(Cc6ccccc6)CC5)c(O)c4c3C2=O)NC(=O)/C(C)=C\C=C\[C@H](C)[C@H](O)[C@@H](C)[C@@H](O)[C@@H](C)[C@H](OC(C)=O)[C@@H]1C	CS-R			MIC		≤0.01 µg/mL
C=C[C@@](C)(O)CC/C=C(/C)CCC=C(C)C	H37Rv			MIC		32 µg/mL
CC(C)[C@H]1C(=O)OC[C@@H](NC(=O)c2cnc3ccccc3n2)C(=O)N[C@@H](C)C(=O)N(C)[C@@H]2CSSC[C@H](C(=O)N1C)N(C)C(=O)[C@H](C)NC(=O)[C@H](NC(=O)c1cnc3ccccc3n1)COC(=O)[C@H](C(C)C)N(C)C2=O	TAC-R			MIC		<1 µg/mL
Cc1c(C(=O)N2CCOCC2)nn(-c2ccc(Cl)cc2Cl)c1-c1ccc(Cl)cc1	H37Rv		agar	MIC90		>25 µg/mL
O=C(c1ccncc1)N(/N=C/c1ccc(Cl)cc1)C(=O)c1cnccn1	H37Rv			MIC		0.5 µg/mL
CC(C)c1cc(C(C)C)c(S(=O)(=O)N2CCN(CCO)CC2)c(C(C)C)c1	Clinical isolate		resazurin	MIC		4 µg/mL
NNC(=O)c1cc(/C=C/c2cccs2)nc2ccccc12	H37Rv		fluorescence	MIC		3.125 µg/mL
O=C(NN=C1CCCC1)c1ccncc1	EMB-resistant			MIC		0.1 µg/mL
N#Cc1c(NC(=O)c2c(F)c(F)c(F)c(F)c2F)sc2c1CCOC2	H37Rv	gyrA mutant (D94N)	turbidity	EC90		15 µM
Cc1c(C(=O)NN2CCCCC2)noc1-c1ccc(Cl)cc1	H37Rv		agar	MIC90		12.5 µg/mL
CCOC(=O)c1c(NC(=O)c2c(F)c(F)c(F)c(F)c2F)sc2c1CCOC2	ATCC 35822		turbidity	EC50		0.12 µM
O=C(N/N=C/c1ccc(F)cc1)c1ccncc1				MIC90		0.2 µg/mL
O=C(c1ccncc1)N(/N=C/c1ccccc1Cl)C(=O)c1cnccn1	9 isolates (sensitive)			MIC		0.25–2 µg/mL
CCO/C=C1\N=C(COc2ccc(Cl)cc2C)OC1=O	H37Rv		BACTEC	inhibition	12.5 µg/mL	-8%
CCn1cc(C(=O)O)c(=O)c2cc(F)c(N3CCNCC3)cc21	134 isolates			MIC50		4 µg/mL
O=C(O)c1cc(-c2ccc(-c3ccc([N+](=O)[O-])s3)s2)nc2ccccc12	H37Rv		fluorescence	MIC		6.25 µg/mL
Cc1cc(C)n(P2(n3nc(C)cc3C)=NP(n3nc(C)cc3C)(n3nc(C)cc3C)=NP(n3nc(C)cc3C)(n3nc(C)cc3C)=N2)n1	H37Rv		BACTEC	inhibition	128 µg/mL	100%
Cc1ccc(-c2nn(-c3ccccc3)cc2/C=C/c2nc3sccn3c(=O)c2-c2ccc(C#N)cc2)cc1	H37Rv		colony count	MIC		152 µg/mL
O=c1cc(-c2ccc(O)c(O)c2-c2c(O)cc(O)c3c(=O)cc(-c4ccc(O)cc4)oc23)oc2cc(O)cc(O)c12	H37Rv		resazurin	MIC		39.06 µg/mL
CCNC(=O)c1c(NC(=O)c2c(F)c(F)c(F)c(F)c2F)sc2c1CCN(CC)C2			low oxygen	MIC		130 µM
Cc1nccn1Cc1nc(-c2ccc(C(F)(F)F)cc2)no1	18b		resazurin	MIC		16 µg/mL
NC(=O)c1cnccn1	Isolate K10400			MIC		>500 µg/mL
Cc1ccc(NC(=O)c2cc(-c3ccc(-c4ccc([N+](=O)[O-])s4)s3)nc3ccc(C)cc23)cc1	H37Rv		fluorescence	MIC		>6.25 µg/mL
CCN1CCc2c(sc(NC(=O)c3c(F)c(F)c(F)c(F)c3F)c2C#N)C1			low oxygen	MIC		140 µM
O=c1c2ccccc2oc2c1ccc1ncccc12	H37Rv		BACTEC	inhibition	12.5 µg/mL	98%
O=C(Nc1ccc(F)cc1)C1(c2cccs2)CCOCC1	CDC1551		turbidity	EC50		67 µM
NC(=Nc1ccc(Br)cc1)/N=C(\N)Nc1cccc(S(=O)(=O)Nc2ncc(Cl)cn2)c1			resazurin	inhibition	6.25 µg/mL	3%
COc1ccc(-c2csc(NN=Cc3ccc4c(c3)c3ccccc3n4C)n2)cc1OC	H37Rv		fluorescence	EC50		28 µM
C/C(=C\CN)CCC[C@H](C)CCC[C@H](C)CCCC(C)C	H37Rv			MIC		32 µg/mL
COc1ccc(/C(O)=C/c2nc3cc(Cl)ccc3oc2=O)cc1	Clinical isolate		resazurin	MIC		4 µg/mL
Cn1c2ccccc2c2cc(C=NNc3nc(-c4cccc(Cl)c4)cs3)ccc21	H37Rv		fluorescence	MIC		>200 µM
Cc1cc(NC(=O)C2(c3cccs3)CCOCC2)ccc1Br	CDC1551		turbidity	EC50		200 µM
Cn1c2ccccc2c2cc(C=NNc3nc(-c4cccs4)cs3)ccc21	H37Rv		fluorescence	MIC		>200 µM
CCOC(=O)c1cc(-c2ccccc2)sc1NC(=O)c1ccccc1	H37Rv		resazurin	MIC		>100 µg/mL
CC1CN(C(=S)S)C(C)CN1C(=S)S	H37Rv		resazurin	MIC bound		>6.25 µg/mL
Cc1c(Br)c(=O)oc2c(C)c3c(cc12)CC(CI)O3	H37Rv		BACTEC	inhibition	12.5 µg/mL	25%
COc1cc(/C=N/N(C(=O)c2ccncc2)C(=O)c2cnccn2)ccc1O	9 isolates (sensitive)			MIC		2–4 µg/mL
CN[C@@H]1[C@H](O[C@H]2[C@H](O[C@H]3[C@H](O)[C@@H](O)[C@H](N=C(N)N)[C@@H](O)[C@@H]3N=C(N)N)O[C@@H](C)[C@]2(O)C=O)O[C@@H](CO)[C@H](O)[C@H]1O	666			MIC		0.2 µg/mL
CO[C@H]1/C=C/O[C@@]2(C)Oc3c(C)c(O)c4c(=O)c(c5oc6cc(N7CCN(CC(C)C)CC7)cc(=O)c6nc5c4c3=C2O)NC(=O)/C(C)=C\C=C\[C@H](C)[C@H](O)[C@@H](C)[C@@H](O)[C@@H](C)[C@H](OC(C)=O)[C@@H]1C	H37Rv			MBC		0.007 µg/mL
CC(C)(C)C1CCC(=NNC(=O)c2ccncc2)CC1	Erdman			MIC		0.1 µg/mL
CCOC(=O)c1nc2ccccc2nc1Nc1ccc(C(=O)OC)s1	H37Rv		resazurin	MIC bound		>6.25 µg/mL
Cc1c(C(=O)NN2CCCCC2)nn(-c2ccc(Cl)cc2Cl)c1-c1ccccc1	H37Rv		agar	MIC90		12.5 µg/mL
O=[N+]([O-])C1=CN2C[C@H](OCc3ccc(OC(F)(F)F)cc3)COC2N1	wtH37Rv		broth dilution	MIC		0.8 µM
Cc1ccccc1-c1nn(-c2ccccc2)cc1/C=C/c1nc2sccn2c(=O)c1-c1ccc(C#N)cc1	H37Rv		colony count	MIC		2.6 µg/mL
CC(=O)Nc1cccc(NC(=O)C2(c3cccs3)CCOCC2)c1	CDC1551		turbidity	EC50		200 µM
C1CCNCC1.S=C(S)N1CCCCC1	EMB-R			MIC		3.1 µg/mL
O=C1c2ccccc2C2=Nc3ccccc3SC12O	Clinical isolate		resazurin	MIC		2 µg/mL
Cc1c(I)c(=O)oc2c(C)c3c(cc12)CC(CI)O3	H37Rv		BACTEC	inhibition	12.5 µg/mL	17%
CCOC(=O)c1c(NC(=O)c2c(F)c(F)c(F)c(F)c2F)sc2c1CCNC2=O	H37Rv	gyrA mutant (D94N)	turbidity	EC90		3.4 µM
CSC(=S)NNC(C)c1nccc2ccccc12	H37Rv		BACTEC	inhibition	128 µg/mL	100%
CC(=O)NC1=NN(C(C)=O)C2(S1)C(=O)N(C)c1ccc(F)cc12	18b		resazurin	MIC		4 µg/mL
CC(=O)O[C@H]1CC[C@]2(C)[C@H]3CC[C@@H]4[C@H]5[C@H](C(C)=O)CC[C@]5(C)CC[C@@]4(C)[C@]3(C)CC[C@H]2C1(C)C	H37Rv			MIC		>128 µM
COc1cccc(C(=O)O/N=C(\C)c2ccccn2)c1OC	18b		resazurin	MIC		8 µg/mL
Nc1ccc(C(=O)N/C(=C\C=C\c2ccco2)c2nc3c4c(ccc3[nH]2)C(=O)c2ccccc2C4=O)cc1	H37Rv		resazurin	inhibition	6.25 µg/mL	37%
Cc1cccc(NC(=O)c2cc3c(oc2=O)CC(C)(C)CC3=O)c1	18b		resazurin	MIC		8 µg/mL
CCCCOC(=O)c1cc(=O)[nH]c(=O)[nH]1	H37Rv		BACTEC	inhibition	12.5 µg/mL	21%
OO	H19			inhibition	0.0005 µM	20%
CCCCCC/C=C/CCCCCCCCCc1cc(O)cc(OC)c1O	H37Rv		BACTEC	inhibition	12.5 µg/mL	13%
Cn1c2ccccc2c2cc(C=NNc3nc(-c4ccc(Cl)cc4)cs3)ccc21	H37Rv		fluorescence	EC90		>200 µM
CCOC1=C(C#N)C(=O)NC2OC(CO)C(O)C2O1	H37Rv		BACTEC	inhibition	12.5 µg/mL	-18%
CC1(C)C=Cc2c(ccc(C(=O)/C=C/c3ccc(O)cc3)c2O)O1	MTCS2		resazurin	MIC		9.76 µg/mL
CN(C)C(=S)S(=O)(=O)c1ccc(Cl)cc1	H37Rv			MIC		8 µg/mL
CCN1CCc2c(sc(NC(=O)c3c(F)c(F)c(F)c(F)c3F)c2C(=O)NC)C1			low oxygen	EC90		9.1 µM
O=C(CC1Sc2ccccc2NC1=O)NNc1c(Cl)cc(Cl)cc1Cl	H37Rv		BACTEC	inhibition	12.5 µg/mL	-6%
[I][Hg][CH2]C1Cc2ccccc2O1	H37Rv		BACTEC	inhibition	12.5 µg/mL	99%
O=Cc1cn(CCCCCCCCn2cc(C=O)c3ccccc32)c2ccccc12	H37Rv		BACTEC	inhibition	12.5 µg/mL	0%
CN(C)C/C=C(/c1ccc(Br)cc1)c1ccc(-c2ccc(Br)cc2)cc1	H37Ra			MIC		4 µg/mL
FC(F)(F)c1cc(NC(=S)SCc2ccc(Cl)cc2)ccc1Cl	H37Rv		resazurin	MIC bound		>6.25 µg/mL
Cc1ccc(NC(=O)c2cc(-c3ccccc3)sc2N)cc1	H37Rv		resazurin	MIC		>100 µg/mL

ECn: concentration that inhibits the pathogen or its effect by n%. Lines come from different laboratories, so protocols vary. An empty or dashed field is not shown. A number after MIC or MFC names an inhibition level or a share of isolates. MIC bound comes from a single tested concentration. Two numbers with a dash give a range or band.